A mixed list of measured activities; the numbers were collected in NIAID ChemDB.

All rows: tests in culture; agent: HIV-1; measure: EC50

Blank or dashed fields: not listed here. Rows are shuffled and stem from different studies. ECn: concentration that inhibits the pathogen or its effect by n%.

smiles,cells,changes,strain or isolate,conditions,method,value
CN(C)c1ccc(Nc2c3ccc(NC(=O)CCN4CCCC4)cc3nc3cc(NC(=O)CCN4CCCC4)ccc23)cc1,MT-4,-,IIIB,-,p24 / single cycle,5.6 µM
CN(C(=O)[C@H](Cc1cc(F)cc(F)c1)NC(=O)CN1c2ccccc2N(CC(=O)N[C@@H](Cc2cc(F)cc(F)c2)C(=O)N(C)c2ccc3sncc3c2)S1(=O)=O)c1ccc2sncc2c1,MT-2,-,NL4-3,-,luciferase,0.02 µM
Cc1cc(S(N)(=O)=O)ccc1NC(=O)COc1ccc(Cl)cc1C(=O)c1cc(Cl)cc(C#N)c1,HeLa + HELA CD4+,RT-P236L,HXB2,-,β-galactosidase,<0.01 µM
CCC1=C(C(=O)CCC2CCCCC2)[C@H](c2ccc(O)c(Cl)c2)NC(=O)N1,CEM,-,-,-,p24 / ELISA,≤1 µM
Cc1cc2[nH]cnc2cc1NC(=O)COc1ccc(Cl)cc1C(=O)c1cc(F)cc(C(F)(F)F)c1,HeLa + HELA CD4+,RT-G190A,HXB2,-,β-galactosidase,<0.01 µM
CN(C(=O)C(Cc1ccccc1)NC(=O)c1cccc(C(=O)N[C@@H](Cc2ccccc2)C(=O)N(C)c2ccc3scnc3c2)c1)c1ccc2scnc2c1,MT-2,-,NL4-3,-,luciferase,0.04 µM
CCOC(=O)C1=C(C)NC(=O)NC1c1cccc([N+](=O)[O-])c1,CEM,-,-,-,p24 / ELISA,>5 µM
Cc1cc(C(=O)NC[C@H](O)[C@@]23CC[C@]4(C)[C@H](CC[C@@H]5[C@@]6(C)CC[C@H](OC(=O)[C@H]7C[C@@H](C(=O)O)C7(C)C)C(C)(C)[C@@H]6CC[C@]54C)C2=C(C(C)C)C(=O)C3)c(C)o1,MT-2,-,92HT599,-,p24 / ELISA,<1 µM
Nc1nc(NC2CC2)c2ncn([C@H]3C=C[C@@H](CO)C3)c2n1,MT-2,M41L/D67N/K70R/K103N/L210W/T215F/K219Q,Clinical isolate,-,recombinant virus assay,0.4136 µM
C[C@@H]1CN(C(=O)c2ccccc2)CCN1C(=O)C(=O)c1c[nH]c2c(NC(=O)NCCOCCOCCNC(=O)c3ccc(B(O)O)cc3)cccc12,HeLa,-,-,-,luciferase / reporter gene,<1 µM
CCC1=C(C(=O)OCC2CCCCC2)C(c2ccc(OC(=O)c3ccncc3)c(Cl)c2)NC(=O)N1,CEM,-,-,-,p24 / ELISA,≤1 µM
COc1ccc(N(C)C(=O)[C@H](Cc2ccccc2)NS(=O)(=O)NC(=O)N[C@@H](Cc2ccccc2)C(=O)N(C)c2ccc3scnc3c2)cc1,MT-2,-,NL4-3,-,luciferase,0.03 µM
Cc1cc(S(N)(=O)=O)ccc1NC(=O)COc1ccc(Cl)cc1C(=O)c1cccc(C#N)n1,HeLa + HELA CD4+,RT-G190A,HXB2,-,β-galactosidase,<0.01 µM
CC(C)C1=C2[C@H]3CC[C@@H]4[C@@]5(C)CC[C@H](OC(=O)[C@H]6C[C@@H](C(=O)O)C6(C)C)C(C)(C)[C@@H]5CC[C@@]4(C)[C@]3(C)CC[C@@]2([C@@H](O)CNCC2(NC(=O)c3ccc(Cl)cc3)CCC2)CC1=O,MT-2,-,92HT599,-,p24 / ELISA,<1 µM
COc1ccc(N(C)C(=O)[C@H](Cc2ccccc2)NC(=O)CS(=O)(=O)N[C@@H](Cc2ccccc2)C(=O)N(C)c2ccc(OC)cc2)cc1,MT-2,-,NL4-3,-,luciferase,1.09 µM
CS(=O)(=O)Nc1ccc(NC(=O)COc2ccc(Cl)cc2C(=O)c2ccccc2)cc1,HeLa + HELA CD4+,-,WTRVA,-,β-galactosidase,<0.01 µM
CC(C)C1=C2[C@H]3CC[C@@H]4[C@@]5(C)CC[C@H](OC(=O)[C@@H]6C[C@H](C(=O)O)C6(C)C)C(C)(C)[C@@H]5CC[C@@]4(C)[C@]3(C)CC[C@@]2(CCNC(=O)c2ccc(Cl)cc2)CC1=O,MT-2,-,92HT599,-,p24 / ELISA,<1 µM
CN(C(=O)[C@H](Cc1cc(F)cc(F)c1)NC(=O)NS(=O)(=O)N[C@@H](Cc1cc(F)cc(F)c1)C(=O)N(C)c1ccc(Cl)cc1)c1ccc(Cl)cc1,MT-2,-,NL4-3,-,luciferase,0.04 µM
CC(C)(C)OC(=O)NN(C[C@H](O)[C@H](Cc1ccccc1)NC(=O)[C@H](CC(N)=O)NC(=O)c1ccc2ccccc2n1)C1CCCCC1,MT-2,-,Clinical isolate strain 237228,-,cytopathic effect / RT activity / trypan blue,<0.1 µM
C[C@H]1[C@H](O)[C@@H](C)/C=C/C=C/C=C/C=C/C=C/C=C/C=C/[C@H](O[C@@H]2O[C@H](C)[C@@H](O)[C@H](N)[C@@H]2O)C[C@@H]2O[C@](O)(C[C@@H](O)C[C@@H](O)CC[C@H](O)[C@@H](O)C[C@@H](O)CC(=O)O[C@H]1C)C[C@H](O)[C@H]2C(=O)O,PBMC,-,93BR020 CLADE F R5/X4 (SI),-,p24 / RT activity,0.5 µM
CCCc1cc(=O)oc2c3c(c4c(c12)OC(C)(C)CC4)O[C@@H](C)[C@H](C)[C@@H]3O,CEM + CEM-SS,-,IIIB,-,XTT,0.1 µM
CC(C)CS[C@H]1C[C@@H](n2cnc3c(N)ncnc32)[C@H](O)[C@@H]1O,CEM,-,IIIB,-,cytopathic effect / syncytia / trypan blue,≥50 µg/mL
C=CCN(C(=O)[C@H](Cc1cc(F)cc(F)c1)NC(=O)c1cc(F)c(F)cc1C(=O)N[C@@H](Cc1cc(F)cc(F)c1)C(=O)N(CC=C)c1ccc(OC)cc1)c1ccc(OC)cc1,MT-2,-,NL4-3,-,luciferase,7.24 µM
Cc1nc2ccccc2c(-c2cc(F)c3c(c2C)CCCO3)c1[C@H](OC(C)(C)C)C(=O)O,MT-4,K173R,NL4-3,-,luminescence,0.019 µM
Nc1nc(=O)n([C@H]2C=C[C@@H](CO)O2)cc1F,PBMC,-,BRU,-,PCR,<0.22 µM
Cc1cc(OCCCS(N)(=O)=O)ccc1NC(=O)COc1ccc(Cl)cc1C(=O)c1cc(F)cc(C(F)(F)F)c1,HeLa + HELA CD4+,RT-V108I Y181C,HXB2,-,β-galactosidase,<0.01 µM
CC(C)(C)OC(=O)N1Cc2ccccc2CN1CC(O)[C@H](Cc1ccccc1)NC(=O)[C@H](CC(N)=O)NC(=O)c1ccc2ccccc2n1,MT-2,-,Clinical isolate strain 237228,-,cytopathic effect / RT activity / trypan blue,<1 µM
COc1ccc(N(C)C(=O)[C@H](Cc2ccccc2)NC(=O)/C=C/C(=O)N[C@@H](Cc2ccccc2)C(=O)N(C)c2ccc(OC)cc2)cc1,MT-2,-,NL4-3,-,luciferase,0.78 µM
C=C(C)[C@@H]1CC[C@]2(C(=O)NCCC(C)(C)C)CC[C@]3(C)[C@H](CC[C@@H]4[C@@]5(C)CC[C@H](OC(=O)CC(C)(C)C(=O)O)C(C)(C)[C@@H]5CC[C@]43C)[C@@H]12,-,V370delta,NL4-3,-,absorbance,0.332 µM
CCC(=O)c1ccc(F)c([C@@H]2C[C@@H]2NC(=O)Nc2ccc(C#N)cn2)c1O,TZM-bl,NNRTI-resistant (RT Y188H),LAI,-,β-galactosidase / luminescence,0.00116 µM
CC(C)C1=C2[C@H]3CC[C@@H]4[C@@]5(C)CC[C@H](OC(=O)[C@@H]6C[C@H](C(=O)O)C6(C)C)C(C)(C)[C@@H]5CC[C@@]4(C)[C@]3(C)CC[C@@]2([C@@H](O)CNCc2ccc(Cl)cc2)CC1=O,MT-2,-,92HT599,-,p24 / ELISA,<1 µM
Cc1cc(C#N)cc(C(=O)c2cc(Cl)ccc2OCC(=O)Nc2ccc(OCCCN3CC=CC3)cc2C)c1,HeLa + HELA CD4+,-,WTRVA,-,β-galactosidase,<0.01 µM
C[C@@H]1CN(C(=O)c2ccccc2)CCN1C(=O)C(=O)c1c[nH]c2c(NC(=O)NCCCCCCNC(=O)Nc3ccc(B(O)O)cc3)cccc12,HeLa,-,-,-,luciferase / reporter gene,<1 µM
CC1(C)CC=C(c2cn(-c3nccc(C(=O)NC4CCC(N5CC6CCC(C5)O6)CC4)n3)c3ccc(F)c([C@H](OC(C)(C)C)C(=O)O)c23)CC1,MT-4,V201I,NL4-3,-,luminescence,0.0051 µM
CC(C)C1=C2[C@H]3CC[C@@H]4[C@@]5(C)CC[C@H](OC(=O)[C@H]6C[C@@H](C(=O)O)C6(C)C)C(C)(C)[C@@H]5CC[C@@]4(C)[C@]3(C)CC[C@@]2(CCNC(=O)c2ccc(N3CCC(N4CCOCC4)CC3)cc2)CC1=O,MT-2,-,92HT599,-,p24 / ELISA,<1 µM
Cc1cc(S(N)(=O)=O)ccc1NC(=O)COc1ccc(Cl)cc1C(=O)c1cc(F)cc(F)c1,HeLa + HELA CD4+,RT-K103N L100I,HXB2,-,β-galactosidase,<0.01 µM
Cc1ccc(-c2ccc(NC(=O)N3CCC4(CCO4)CC3)cc2)cc1,TZM-bl,-,CNE8,pseudotyped,luminescence,>30 µM
CC(CCc1ccccc1)N(C[C@@H](O)[C@H](Cc1ccccc1)NC(=O)[C@H](CC(N)=O)NC(=O)c1ccc2ccccc2n1)NC(=O)OC(C)(C)C,MT-2,-,Clinical isolate strain 237228,-,cytopathic effect / RT activity / trypan blue,<1 µM
COC(=O)CCCNC(=O)Nc1cccc2c(C(=O)C(=O)N3CCN(C(=O)c4ccccc4)C[C@H]3C)c[nH]c12,HeLa,-,-,-,luciferase / reporter gene,<1 µM
CC(C)=CCOc1cc(NC(=S)c2ccoc2C)ccc1Cl,MT-2,-,IIIB,-,cytopathic effect / XTT,0.03 µM
C#C[C@@]1(CO)C=C[C@H](n2cc(C)c(=O)[nH]c2=O)O1,MT-2,K65R/Y181C/G190S,Clinical isolate,-,recombinant virus assay,0.0646 µM
C/C=C/CSc1cc(NC(=S)c2ccsc2C)ccc1Cl,PBMC,-,WEJO,-,p24,0.2 µM
CC(C)(C)OC(=O)N1CCCCN1C[C@H](O)[C@H](Cc1ccccc1)NC(=O)[C@H](CC(N)=O)NC(=O)c1ccc2ccccc2n1,MT-2,-,Clinical isolate strain 237228,-,cytopathic effect / RT activity / trypan blue,<1 µM
COc1ccc(N(C)C(=O)[C@H](Cc2ccccc2)NC(=O)c2ccc(F)c(C(=O)N[C@@H](Cc3ccccc3)C(=O)N(C)c3ccc(OC)cc3)c2)cc1,MT-2,-,NL4-3,-,luciferase,0.05 µM
C[C@@H]1CN(C(=O)c2ccccc2)CCN1C(=O)C(=O)c1c[nH]c2c(NC(=O)NCCCCNC(=O)Nc3ccc(B(O)O)cc3)cccc12,HeLa,-,-,-,luciferase / reporter gene,<1 µM
CC(C)=CCOc1cc(NC(=S)c2ccsc2C)ccc1Cl,CEM + CEM-SS,RT-A98G V108I,TIBO R82150-resistant (RT A98G V108I),-,cytopathic effect / XTT,0.2 µM
NC(N)=NCCC[C@H](N)C(=O)NC[C@@H]1OC(O[C@H]2[C@@H](O)[C@H](O[C@@H]3[C@@H](O)[C@H](NC(=O)[C@@H](N)CCCN=C(N)N)C[C@H](NC(=O)[C@@H](N)CCCN=C(N)N)[C@H]3O[C@H]3O[C@H](CNC(=O)[C@@H](N)CCCN=C(N)N)[C@@H](O)[C@H](O)[C@H]3NC(=O)[C@@H](N)CCCN=C(N)N)O[C@@H]2CO)[C@H](NC(=O)[C@@H](N)CCCN=C(N)N)[C@@H](O)[C@@H]1O,MT-2,-,IIIB,-,p24 / RT activity,3.7 µM
C=CCN(C(=O)[C@H](Cc1cc(F)cc(F)c1)NC(=O)c1ccccc1S(=O)(=O)N[C@@H](Cc1cc(F)cc(F)c1)C(=O)N(CC=C)c1ccc(OC)cc1)c1ccc(OC)cc1,MT-2,-,NL4-3,-,luciferase,10.14 µM
CCC1=C(C(=O)c2ccc(Cl)cc2)C(c2cccc(O)c2)NC(=O)N1,CEM,-,-,-,p24 / ELISA,>5 µM

Again, the opening 6 rows:

smiles	cells	changes	strain or isolate	conditions	method	value
CN(C)c1ccc(Nc2c3ccc(NC(=O)CCN4CCCC4)cc3nc3cc(NC(=O)CCN4CCCC4)ccc23)cc1	MT-4	-	IIIB	-	p24 / single cycle	5.6 µM
CN(C(=O)[C@H](Cc1cc(F)cc(F)c1)NC(=O)CN1c2ccccc2N(CC(=O)N[C@@H](Cc2cc(F)cc(F)c2)C(=O)N(C)c2ccc3sncc3c2)S1(=O)=O)c1ccc2sncc2c1	MT-2	-	NL4-3	-	luciferase	0.02 µM
Cc1cc(S(N)(=O)=O)ccc1NC(=O)COc1ccc(Cl)cc1C(=O)c1cc(Cl)cc(C#N)c1	HeLa + HELA CD4+	RT-P236L	HXB2	-	β-galactosidase	<0.01 µM
CCC1=C(C(=O)CCC2CCCCC2)[C@H](c2ccc(O)c(Cl)c2)NC(=O)N1	CEM	-	-	-	p24 / ELISA	≤1 µM
Cc1cc2[nH]cnc2cc1NC(=O)COc1ccc(Cl)cc1C(=O)c1cc(F)cc(C(F)(F)F)c1	HeLa + HELA CD4+	RT-G190A	HXB2	-	β-galactosidase	<0.01 µM
CN(C(=O)C(Cc1ccccc1)NC(=O)c1cccc(C(=O)N[C@@H](Cc2ccccc2)C(=O)N(C)c2ccc3scnc3c2)c1)c1ccc2scnc2c1	MT-2	-	NL4-3	-	luciferase	0.04 µM